Compound potency records, mixed from different reports. Data source: NIAID ChemDB in PubChem.

All rows: host cell toxicity; cells: MT-4; read-out: CC50

Rows are shuffled and stem from different studies. CCn: concentration that lowers growth or viability of the cells by n%. An empty or dashed field is not shown.

compound	read by	result
Nc1ncc(CC2(CO)CCC2)c(=O)[nH]1		>100 µM
Cc1cccc(C)c1OCC(=O)N[C@@H](Cc1ccccc1)[C@@H](O)C[C@H](Cc1ccccc1)NC(=O)[C@H](C(C)C)N1CCCNC1=O	WST	46.9 µM
Nc1nc(-c2ccc(Br)cc2Br)c(SCC(=O)Nc2ccc(Cl)cc2Cl)s1	MTT	20.73 µM
O=c1ccn([C@@H]2OC[C@H](OCP(=O)(O)O)[C@H]2O)c(=O)[nH]1	tetrazolium	>155 µM
O=S1(=O)N=C(Nc2ccccc2)C=C(Cc2ccccc2)N1	MTT	292 µM
C(CCC1CNCCNCCCNCCNC1)CCC1CNCCNCCCNCCNC1		210 µM
Nc1ncnc2c1ncn2[C@H]1C[C@@H](OCP(=O)(O)O)CO1	tetrazolium	>316 µM
Nc1ncnc2c1ncn2[C@]1(c2ccccc2)C[C@@H]1CO		>100 µM
c1ccc2c(c1)Cn1ccnc1-c1nnc(-c3ccncc3)n1-2		>300 µM
Cc1ccc(NC2=NS(=O)(=O)NC(Cc3ccccc3)=C2)cc1Cl	MTT	175 µM
OC[C@H]1O[C@@H](n2c(=S)[nH]c3cc(Cl)c(Cl)cc32)[C@H](O)[C@@H]1O		>100 µM
C#CC1(CO)O[C@@H](n2cnc3c(N)ncnc32)[C@H](O)[C@@H]1O		>400 µM
COc1ccc(CN=C2C=C(Cc3ccccc3)NS(=O)(=O)N2)cc1	MTT	300 µM
Cc1c(O)cccc1C(=O)N[C@@H](CSc1ccccc1)[C@H](O)CN1C[C@H]2CCCC[C@H]2C[C@H]1C(=O)NC(C)(C)C	MTT	6 µM
CC(C)OP(=O)(COC[C@H]1C[C@@]1(c1ccccc1)n1ccc(N)nc1=O)OC(C)C		>100 µM
O=[N+]([O-])c1cc(Cl)c(Cl)cc1[N+](=O)[O-]		>100 µM
Nc1ncnc2c1ccn2[C@H]1CC[C@@H](CO)O1		33 µM
O=C(OCC1OC(Sc2nc3cc(Cl)c(Cl)cc3[nH]2)C(OC(=O)c2ccccc2)C1OC(=O)c1ccccc1)c1ccccc1		>100 µM
CCn1nnc2c(C)nn(-c3ccccc3)c21		145 µM
NC(=O)c1cn([C@H]2CC[C@@H](CO)O2)c2ncnc(N)c12		242 µM
CC(C)=CCN(C(C)C(=O)O)S(=O)(=O)c1cc(Cl)ccc1N	MTT	>200 µM
COC(=O)[C@H](C)NP(=O)(OC[C@@H]1CC[C@H](n2cnc3c(N)ncnc32)O1)Oc1ccccc1		6.5 µM
O=S1(=O)NC(Cc2ccc3ccccc3c2)=CC(=NCCc2ccccc2)N1	MTT	141 µM
COc1ccc2c(O)c(C(c3cccc(NS(=O)(=O)c4ccc(F)cc4)c3)C3CC3)c(=O)oc2c1		>30 µM
COc1c(O)cc([C@H]2Oc3cc(O)cc(O)c3[C@@H](c3c(O)cc(O)c4c3O[C@H](c3cc(O)c(OC)c(O)c3)[C@H](O)C4)[C@@H]2O)cc1O	MTT	7.58 µg/mL
COC(=O)[C@H](C)NP(=O)(OC[C@@H]1C=C[C@H](n2cnc3c(N)ncnc32)O1)Oc1ccccc1		18 µM
CCOC(=O)CN(CC)S(=O)(=O)c1cc(Cl)ccc1[N+](=O)[O-]	MTT	>200 µM
C#C[C@]1(CO)O[C@@H](n2cc(C)c(=O)[nH]c2=O)[C@@H](O)[C@@H]1O		>400 µM
Cc1cccc(N2C(=O)CS[C@@H]2c2c(Br)cccc2Br)n1		13.06 µM
Cc1nn(-c2ccccc2)c2nc(NCc3ccccc3)oc12		23 µM
O=c1[nH]cnc2c1ncn2[C@H]1CC[C@@H](CO)O1	MTT	>211 µM
C[C@H](Cn1cnc2c(N)ncnc21)OCP(=O)(O)O	tetrazolium	>350 µM
C1CNCCNCC(CCCC2CNCCNCCCNCCNC2)CNCCNC1		230 µM
CC=CCN1C(C)C(=O)Nc2ccc(Cl)cc2S1(=O)=O	MTT	>200 µM
CCCNC(=O)/N=C1\C(=[N+]=[N-])C(C)=NN1c1ccccc1		77 µM
Cc1cn([C@]2(c3ccccc3)C[C@@H]2COCP(=O)(O)O)c(=O)[nH]c1=O		>100 µM
CC(C)(C)NC(=O)[C@@H]1CN(Cc2cccnc2)CCN1C[C@@H](O)C[C@@H](Cc1ccccc1)C(=O)N[C@H]1c2ccccc2C[C@H]1O	MTT	>100 µM
CCC(Cc1ccccc1)c1cc(O)c(C(c2cccc(NS(=O)(=O)c3ccc(Cl)cc3)c2)C2CC2)c(=O)o1		>30 µM
COc1ccc(CCN=C2C=C(Cc3ccccc3)NS(=O)(=O)N2)cc1	MTT	209 µM
C#CC1(CO)O[C@@H](n2cc(C)c(=O)[nH]c2=O)[C@H](O)[C@@H]1O		>400 µM
Nc1ccn([C@]2(c3ccccc3)C[C@@H]2CO)c(=O)n1		>100 µM
COc1ccc2c(O)c(C(c3cccc(NS(=O)(=O)c4cn(C)cn4)c3)C3CC3)c(=O)oc2c1		>30 µM
Nc1nc(N)c2ncn([C@H]3CC[C@@H](CO)O3)c2n1		477 µM
CC(C)(C)C(=O)SCCOP(=O)(OCCSC(=O)C(C)(C)C)OCC1(Cc2cnc(N)[nH]c2=O)CCC1		89.5 µM
O=c1[nH]c(=O)n([C@H]2C[C@H](F)[C@@H](CO)O2)cc1Cl		490 µM
CC(C)[C@H]1CC[C@]2(C(=O)O)CC3=C(C[C@@H]12)[C@]1(C)[C@@H]2CC[C@@H](C)C21CC[C@H]3C	ATP / luminescence	6.6 µM
C[C@H]1C(=O)Nc2ccc(Cl)cc2S(=O)(=O)N1Cc1c(F)cccc1F	MTT	>200 µM
C=CCN1C(=O)c2cccn2S(=O)(=O)c2ccc(Cl)cc21		32 µM
Nc1ncnc2c(CC3(CO)CCC3)c[nH]c12		>100 µM
CC[C@]1(CO)O[C@@H](n2cc(C)c(=O)[nH]c2=O)C[C@@H]1O		>400 µM
CCN[C@H]1CO[C@@H]2OC[C@H](OC(=O)N[C@@H](Cc3cc(F)cc(F)c3)[C@H](O)CN(CC(C)C)S(=O)(=O)c3ccc4nc(NC5CC5)sc4c3)[C@@H]21	WST	42.8 µM
O=c1ccn([C@]2(c3ccccc3)C[C@@H]2COCP(=O)(O)O)c(=O)[nH]1		>100 µM
O=c1ccn([C@H]2C[C@@H](OCP(=O)(O)O)CO2)c(=O)[nH]1	tetrazolium	>336 µM
Nc1nc(-c2ccc(Br)cc2Br)c(SCC(=O)Nc2ccccc2F)s1	MTT	24.94 µM
C#C[C@]1(CO)O[C@@H](n2cnc3cncnc32)C[C@@H]1O		>400 µM
Nc1nc(-c2ccc(Br)cc2Br)c(SCC(=O)Nc2cccnc2Cl)s1	MTT	45.73 µM
Nc1ncnc2c1ncn2[C@@H]1OC[C@H](OCP(=O)(O)O)[C@H]1O	tetrazolium	>268 µM
CCC(Cc1ccccc1)c1cc(O)c(C(c2cccc(NS(=O)(=O)c3cccc4cccnc34)c2)C2CC2)c(=O)o1		>30 µM
CC(C)=CCN1C(=O)c2cccn2S(=O)(=O)c2ccc(Cl)cc21		>300 µM
NS(=O)(=O)c1ccc(NC2=NS(=O)(=O)NC(Cc3ccc4ccccc4c3)=C2)cc1	MTT	139 µM
Cc1ccnc2c1NC(=O)c1cccnc1N2C1CC1	MTT	>15 µM
O=S1(=O)NC(Cc2ccccc2)=CC(=NCCc2ccccc2)N1	MTT	192 µM
CCN1CC(=O)Nc2c([N+](=O)[O-])cc(Cl)cc2S1(=O)=O	MTT	>200 µM
O=C(CSc1sc(Cl)nc1-c1ccc(Br)cc1Br)Nc1cccnc1Cl	MTT	23.24 µM
CC1C(=O)Nc2ccc(Cl)cc2S(=O)(=O)N1CC1OC1(C)C	MTT	57 µM
C1CNCCCNCCCNC1		85 µM

Repeating the final 4 entries:

compound	read by	result
CCN1CC(=O)Nc2c([N+](=O)[O-])cc(Cl)cc2S1(=O)=O	MTT	>200 µM
O=C(CSc1sc(Cl)nc1-c1ccc(Br)cc1Br)Nc1cccnc1Cl	MTT	23.24 µM
CC1C(=O)Nc2ccc(Cl)cc2S(=O)(=O)N1CC1OC1(C)C	MTT	57 µM
C1CNCCCNCCCNC1		85 µM